Laboratory results from ChEMBL document CHEMBL4725263, “Discovery of potential dual-target prodrugs of HIV-1 reverse transcriptase and nucleocapsid protein 7” (Bioorg Med Chem Lett, 2020).

Test system: Human immunodeficiency virus 1
Experiment: Fold resistance, ratio of EC50 for inhibition of reverse transcriptase K103N/Y181C double mutant/nucleocapsid protein 7 in HIV1 RES056 infected in human MT4 cells assessed as protection against virus-induced cytopathic effect incubated for 5 days by MTT assay to EC50 for reverse transcriptase/nucleocapsid protein 7 in wild type HIV1 3B infected in human MT4 cells assessed as protection against virus-induced cytopathic effect incubated for 5 days by MTT assay
Assay type: cell-based
Settings: time 5.0 day
Outline: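 MT-4 cells infected with HIV-1 IIIB (wild type) or RES056 (K103N/Y181C RT double mutant); 5-day incubation; viability by MTT. EC50 is the concentration giving 50% protection against virus-induced cytotoxicity. CC50 is the concentration cutting viability of mock-infected cultures by 50%. SI is CC50/EC50. Fold resistance is EC50 mutant/EC50 wild type.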

Cc1cn([C@H]2C[C@H](N=[N+]=[N-])[C@@H](CO)O2)c(=O)[nH]c1=O [ZIDOVUDINE]
Ratio EC50: 109
